# Values of other authors, collected in patent US20040170653A1, “Tumour peptide antigen produced from human mdm2 proto-oncogene” (priority 2001, published 2004).
# Tested on: A2K^b- and CD8×A2K^b transgenic mice
# Details: positive control (Theobald et al., 1995); cited from earlier work
substance,measurement,value
"Flu M1 58-66: peptide 58-66 of the A/PR/8/34 influenza virus matrix protein M1, positive control [reference compound]",induction of A2.1-restricted CTL,already known
